Experimental data from PMC8480776, “Selenium Derivatives as Promising Therapy for Chagas Disease: In Vitro and In Vivo Studies” (ACS Infectious Diseases, 2021).

Key:
[1] = tested on: T. cruzi epimastigotes, Arequipa strain; test: Screening against extracellular epimastigotes, Arequipa strain; format: cell-based, Trypanosoma cruzi; settings: read-out: Activity IC50, epimastigote form, Arequipa strain; 48 h + 24 h resazurin
[2] = tested on: T. cruzi epimastigotes, SN3 strain; test: Screening against extracellular epimastigotes, SN3 strain; format: cell-based, Trypanosoma cruzi; settings: read-out: Activity IC50, epimastigote form, SN3 strain; 48 h + 24 h resazurin
[3] = tested on: T. cruzi epimastigotes, Tulahuen strain; test: Screening against extracellular epimastigotes, Tulahuen strain; format: cell-based, Trypanosoma cruzi; settings: read-out: Activity IC50, epimastigote form, Tulahuen strain; 48 h + 24 h resazurin
Vero cells = test: Cytotoxicity test on Vero cells; format: cell-based; settings: read-out: Toxicity IC50 Vero cell; 48 h + 24 h resazurin

| Compound | IC50 [1] [µM] | IC50 [2] [µM] | IC50 [3] [µM] | IC50 (Vero cells) [µM] |
| --- | --- | --- | --- | --- |
| COP(=S)(Nc1ccc([Se]C#N)cc1)OC | 38.2 | 30.5 | 41.5 | < 50 |
| CCOP(=S)(Nc1ccc([Se]C#N)cc1)OCC | 38.9 | > 50 | > 50 | < 50 |
